Test system: CD4+Vβ8+ T cells
Details: ligation of CEACAM1 with fusion protein, in vivo

B1: CEACAM1-Fc fusion protein: mouse CEACAM1 N-domain as an Fc fusion protein; Fc for fusion protein is human (protein)
chain: EVTIEAVPPQVAEDNNVLLLVHNLPLALGAFAWYKGNTTAIDKEIARFVPNSNMNFTGQAYSGREIIYSNGSLLFQMITMKDMGVYTLDMTDENYRRTQATVRFHVHP
modifications: left off: a dimerising Fc or GST
notes: mouse CEACAM1 N-domain as an Fc fusion protein; Fc for fusion protein is human
B1 was tested, and the “TIM3 expression on SEB-responsive CD4+Vβ8+ T cells” value was “induces increased TIM3 expression”.
